A mixed list of measured activities; the numbers were collected in NIAID ChemDB.

Common to all: growth or infection tests; agent: Cryptococcus neoformans; measure: MIC

Conditions beyond the fields shown may differ between rows.

COc1cc(O)c2c(c1)C(=O)c1c(cc3c(c1O)-c1c(cc(C)c(C(=O)NC(C)C(=O)O)c1O)[C@H](OC1OC(C)C(N(C)C(=O)C(CO)(CO)CO)C(OC4OCC(O)C(O)C4O)C1O)[C@H]3O)C2=O ; strain: IAM 4514 ; value: >100 µg/mL
Fc1ccc(CN(Cc2ccc(-c3ccccc3)cc2)n2ccnc2)c(F)c1 ; value: 33 µM
COC(=O)[C@H]1[C@@H]2C[C@@H](O[C@@H]3O[C@H](C)[C@@H](O)[C@H](N)[C@@H]3O)/C=C/C=C/C=C/C=C/C=C/C=C/C=C/[C@H](C)[C@@H](O)[C@H](C)[C@H](C)OC(=O)C[C@H](O)C[C@H](O)[C@@H](O)CC[C@H](O)C[C@H](O)C[C@](O)(C[C@@H]1O)O2 ; strain: NCPF 3379 ; value: 0.98 µM
CCCCCOc1ccc(-c2cc(-c3ccc(C(=O)N[C@H]4C[C@@H](O)[C@@H](O)NC(=O)[C@@H]5[C@@H](O)[C@@H](C)CN5C(=O)[C@H]([C@H](O)CC(N)=O)NC(=O)[C@H]([C@H](O)[C@@H](O)c5ccc(O)c(OS(=O)(=O)O)c5)NC(=O)[C@@H]5C[C@@H](O)CN5C(=O)[C@H]([C@@H](C)O)NC4=O)cc3)no2)cc1 ; strain: FMR 8415 ; value: 64 µg/mL
C[C@H]1[C@H](O)[C@@H](C)/C=C/C=C/C=C/C=C/C=C/C=C/C=C/[C@H](O[C@@H]2O[C@H](C)[C@@H](O)[C@H](N)[C@@H]2O)C[C@@H]2O[C@](O)(C[C@@H](O)C[C@@H](O)CC[C@H](O)[C@@H](O)C[C@@H](O)CC(=O)O[C@H]1C)C[C@H](O)[C@H]2C(=O)O ; strain: MTCC 4406 ; read by: absorbance ; value: 0.25 µg/mL
c1ccc(CN(Cc2ccc(-c3ccccc3)cc2)n2ccnc2)cc1 ; value: 200 µM
COc1cc(O)c2c(c1)C(=O)c1c(cc3c(c1O)-c1c(cc(C)c(C(=O)NC(C)C(=O)O)c1O)[C@H](OC1OC(C)C(N(C)C(=O)CN)C(OC4OCC(O)C(O)C4O)C1O)[C@H]3O)C2=O ; strain: IAM 4514 ; value: 3.1 µg/mL
C[C@H]1N(C(=O)c2ccc(C(F)(F)F)cc2)C[C@@H](O)O[C@@]1(Cn1cncn1)c1ccc(F)cc1F ; strain: Isolate 4 ; value: 8 µg/mL
CC(C)C(=N)CCC=C1CO[C@@](Cn2ccnc2)(c2ccc(F)cc2F)C1 ; strain: A.34144 ; value: 50 µg/mL
C=C1CCN([C@H](C)[C@](O)(Cn2cncn2)c2ccc(F)cc2F)CC1 ; strain: KC-201 ; value: 0.05 µg/mL
CC[C@@]1(O)C[C@H](O[C@H]2C[C@H](N(C)C)[C@H](O[C@H]3C[C@H](O)[C@H](O[C@H]4CCC(=O)[C@H](C)O4)[C@H](C)O3)[C@H](C)O2)c2c(cc3c(c2O)C(=O)c2c(O)cccc2C3=O)[C@H]1C(=O)OC ; strain: NCPF 3379 ; value: 35.7 µM
CC[C@@H]1OC(=O)[C@H](C)C(=O)C(O)(CO)C/C(Cl)=C/[C@@H](C)Cc2cccc1c2 ; strain: ATCC90112 ; value: >64 µg/mL
Clc1ccc(CC(c2cccs2)n2ccnc2)c(Cl)c1 ; value: 4.7 µM
COc1ccccc1-c1c(C#N)c(OC)nc2c1CSc1ccc(Cl)cc1-2 ; strain: Farwania ; value: 6 µg/mL
Clc1ccc(CCC(Cn2ccnc2)c2ccc(Cl)cc2Cl)cc1 ; value: <1 µg/mL
Cc1ccc(C(Cc2ccc(N)cc2)n2ccnc2)s1 ; value: 37.5 µM
Cc1nc2c(s1)C(=O)C(Nc1ccc(F)cc1)=C(Cl)C2=O ; strain: KCCM 50564 ; read by: broth dilution ; value: 6.3 µg/mL
Cc1cc(-c2c(N=O)c(C)nn2CCO)no1 ; value: 0.8 µM
COc1ccc(/C=C2\CSc3ccc(OC)cc3C2=O)cc1 ; strain: Farwania ; value: 12.5 µg/mL
Clc1ccc(CN(Cc2ccc(-c3ccccc3)cc2)n2ccnc2)c(Cl)c1 ; value: 2.5 µM
C[C@@H](c1ncncc1F)[C@](O)(Cn1cncn1)c1ccc(F)cc1F ; strain: H99 ; value: 0.03 µg/mL
CC[C@@H]([C@H](C)O)n1ncn(-c2ccc(N3CCN(c4ccc(OC[C@@H]5CO[C@@](Cn6cncn6)(c6ccc(F)cc6F)C5)cc4)CC3)cc2)c1=O ; strain: Isolate 486 ; value: 0.25 µg/mL
CCOC(=O)c1c(N)oc2c1cc(O)c1sc(C)nc12 ; strain: KCCM 50564 ; read by: broth dilution ; value: 25 µg/mL
COc1cc(NS(=O)(=O)c2ccc(N)cc2)nc(OC)n1 ; strain: IFM 40215 ; value: ≥256 µg/mL
C=C1/C=C(\C)[C@H](CC)OC(=O)[C@H](C)C(=O)C(O)(CO)C/C(OC)=C/[C@@H](C)C1 ; strain: MY1051 ; value: 0.002 µg/mL
Cc1cc(-c2nn(C)c(C)c2N=O)no1 ; value: 3.1 µM
CC(C)C(=O)CCC[C@@H]1CO[C@@](Cn2ccnc2)(c2ccc(F)cc2F)C1 ; strain: IFM.40092 ; value: <0.1 µg/mL
N#CC1=C(N)OC2=C(CSc3ccc(Cl)cc32)C1c1cccc2ccccc12 ; strain: 93/V ; value: 50 µg/mL
CC(C)C(=N)CCC[C@H]1CO[C@@](Cn2ccnc2)(c2ccc(F)cc2F)C1 ; strain: A.34144 ; value: 100 µg/mL
COc1ccc(NC2=C(Cl)C(=O)c3nc(C)sc3C2=O)cc1 ; strain: KCCM 50564 ; read by: broth dilution ; value: 6.3 µg/mL
COc1cc(O)c2c(c1)C(=O)c1c(cc3c(c1O)-c1c(cc(C)c(C(=O)NC(C)C(=O)O)c1O)[C@H](OC1OC(C)C(N(CC(=O)O)CC(=O)O)C(OC4OCC(O)C(O)C4O)C1O)[C@H]3O)C2=O ; strain: IAM 4514 ; value: >100 µg/mL
OC(Cn1cncn1)(Cn1cncn1)c1ccc(F)cc1F ; strain: TIMM0354 ; value: 50 µg/mL
COc1nc2c(c(-c3ccc(C)cc3)c1C#N)CSc1ccccc1-2 ; strain: Farwania ; value: 3 µg/mL
Cc1nc2c(s1)C(=O)C(Nc1ccccc1)=C(Cl)C2=O ; strain: KCCM 50564 ; read by: broth dilution ; value: 12.5 µg/mL
Clc1ccc(CC(Cc2ccc(-c3ccccc3)cc2)n2ccnc2)c(Cl)c1 ; value: 5.5 µM
COc1ccc(/C=C2\COc3ccc(-c4ccccc4)cc3C2=O)cc1OC ; strain: 25 ; value: 50 µg/mL
Clc1ccc(C(Cc2ccccc2Cl)Cn2ccnc2)c(Cl)c1 ; value: <1 µg/mL
CCc1cc(C(C)(C)C)nc2c(NC(C)CCCN)cc(OC)c(Oc3cccc(C(F)(F)F)c3)c12 ; value: 10 µg/mL
O=C1/C(=C/c2ccc3ccccc3c2)CSc2ccccc21 ; strain: Farwania ; value: 12.5 µg/mL
CC[C@@H]([C@H](C)O)n1ncn(-c2ccc(N3CCN(c4ccc(OC[C@@H]5CO[C@@](Cn6cncn6)(c6ccc(F)cc6F)C5)cc4)CC3)cc2)c1=O ; strain: DUMC140.92 ; value: 0.125 µg/mL
Clc1ccc(C(Cc2ccccc2)c2c(Cl)nc(N3CCNCC3)nc2Cl)cc1 ; value: 150 µg/mL
COc1ccccc1-c1c(C#N)c(OC)nc2c1CSc1ccccc1-2 ; strain: Farwania ; value: 25 µg/mL
Cc1nc2c(s1)C(=O)C(Nc1ccc(Cl)cc1)=C(Cl)C2=O ; strain: KCCM 50564 ; read by: broth dilution ; value: 1.6 µg/mL
C=CCN(CC=C)C(C)C(O)(Cn1cncn1)c1ccc(F)cc1F ; strain: KC-201 ; value: 0.1 µg/mL
CCn1nc(C)c(N=O)c1-c1cc(C)on1 ; value: 0.1 µM
COc1ccc(C2C(C#N)=C(N)OC3=C2CSc2ccccc23)cc1OC ; strain: 25 ; value: 12.5 µg/mL
CCn1nc(C)c(N)c1-c1cc(C)on1 ; value: >200 µM
COc1ccccc1CC(Cc1ccc(-c2ccccc2)cc1)n1ccnc1 ; value: 5.5 µM
COc1ccc(-c2c(C#N)c(OC)nc3c2CSc2ccc(Cl)cc2-3)cc1OC ; strain: Farwania ; value: 6 µg/mL
O=C1/C(=C/c2ccc3c(c2)OCO3)CSc2ccc(Cl)cc21 ; strain: 93/V ; value: 12.5 µg/mL
COc1ccc2c(c1)-c1nc(OC)c(C#N)c(-c3ccc4c(c3)OCO4)c1CS2 ; strain: 93/V ; value: 12.5 µg/mL
Nc1ccc(S(=O)(=O)Nc2ccnn2-c2ccccc2)cc1 ; strain: IFM 49624 ; value: 8 µg/mL
Cc1ccccc1CC(Cc1ccc(-c2ccccc2)cc1)n1ccnc1 ; value: 33 µM
CC(C)C(=O)CCC[C@H]1CO[C@@](Cn2ccnc2)(c2ccc(F)cc2F)C1 ; strain: IFM.40092 ; value: <0.1 µg/mL
Cc1nc2c(s1)C(=O)C(Nc1cccc(F)c1)=C(Cl)C2=O ; strain: KCCM 50564 ; read by: broth dilution ; value: 12.5 µg/mL
CCCCCCCCCC#CCCC#CC(=O)O ; strain: ATCC66031 ; value: <5.7 µM
COc1ccc(NS(=O)(=O)c2ccc(N)cc2)nn1 ; strain: IFM 40215 ; value: 128 µg/mL
Nc1ccc(CC(c2ccc(Cl)s2)n2ccnc2)cc1 ; value: 37.5 µM
c1ccc(CC(Cc2ccc(-c3ccccc3)cc2)n2ccnc2)cc1 ; value: 5.5 µM
O=[N+]([O-])c1ccc(CC(c2cccs2)n2ccnc2)cc1 ; value: 37.5 µM
COC(=O)c1c(N)oc2c1cc(O)c1sc(C)nc12 ; strain: KCCM 50564 ; read by: broth dilution ; value: 25 µg/mL
COc1cc(O)c2c(c1)C(=O)c1c(cc3c(c1O)-c1c(cc(C)c(C(=O)NC(C)C(=O)O)c1O)[C@H](OC1OC(C)C(N(C)C(=O)CCN)C(OC4OCC(O)C(O)C4O)C1O)[C@H]3O)C2=O ; strain: IAM 4514 ; value: 3.1 µg/mL
Cc1cc(NS(=O)(=O)c2ccc(N)cc2)nc(C)n1 ; strain: IFM 49624 ; value: ≥256 µg/mL
Clc1ccc(C(Cc2ccc(Br)cc2)Cn2ccnc2)c(Cl)c1 ; value: <1 µg/mL
C[C@H]1[C@H](O)C(=O)CC2[C@]3(C)CC[C@@]4(C)C5C[C@](C)(C(=O)O)CC[C@]5(C)CC[C@]4(C)C3CC[C@@]21C ; value: >50 µg/mL
COc1cc(O)c2c(c1)C(=O)c1c(cc3c(c1O)-c1c(cc(C)c(C(=O)NC(C)C(=O)O)c1O)[C@H](OC1OC(C)C(N(C)C/C=C/C(=O)O)C(OC4OCC(O)C(O)C4O)C1O)[C@H]3O)C2=O ; strain: IAM 4514 ; value: 3.1 µg/mL
Cn1cccc1C(Cc1ccc(N)cc1)n1ccnc1 ; value: >300 µM
Cc1ccc(CN(Cc2ccc(-c3ccccc3)cc2)n2ccnc2)cc1 ; value: 200 µM
COc1ccc2c(c1)C1=C(CS2)C(c2ccc3c(c2)OCO3)C(C#N)=C(N)O1 ; strain: 25 ; value: 3 µg/mL
Clc1ccc(C(CCc2ccccc2Cl)Cn2ccnc2)c(Cl)c1 ; value: <1 µg/mL
CCCCCCCCCCCCC#CCCC#CC(=O)O ; strain: ATCC66031 ; value: <5 µM
Clc1ccccc1CC(Cc1ccc(-c2ccccc2)cc1)n1ccnc1 ; value: 5.5 µM
CC[C@@]1(O)C(=O)OCc2c1cc1n(c2=O)Cc2cc3c(CN(C)C)c(O)ccc3nc2-1 ; strain: Clinical isolate (capsule-negative) ; value: >100 µM